The data set in a line: Serum cholesterol levels in RSV-infected mice (ACE7 Cholesterol Reagent). The data set is classed as in vivo. The conditions noted are these: 1 mg/day lovastatin begun 3 days before to 3 days after infection (up to 11 days); serum 8 days post RSV infection.

“Also recorded” adds a separate entry of the source.

`CC[C@H](C)C(=O)O[C@H]1C[C@@H](C)C=C2C=C[C@H](C)[C@H](CC[C@@H]3C[C@@H](O)CC(=O)O3)[C@H]21` [lovastatin]: the serum cholesterol levels result is reported as “not significant differences; also recorded: no significant change”.

The values above are taken from patent publication US20020142940A1, “Method of inhibiting viral infection using HMG-COA reductase inhibitors and isoprenylation inhibitors” (priority 2000, published 2002).
